Pooled drug test results. Numbers come from NIAID ChemDB, via PubChem.

Common to all: growth or infection tests; species: HIV-1; method: p24; read-out: EC50

Rows are shuffled and stem from different studies.

smiles | cells | changes | conditions | strain | value
CCOCn1c(Cc2ccccc2)c(C(C)C)c(=O)[nH]c1=O | MM + M/M | - | - | BaL | 0.02 µg/mL
CC(C)(C)NC(=O)[C@@H]1CN(Cc2cccnc2)CCN1C[C@@H](O)C[C@@H](Cc1ccccc1)C(=O)N[C@H]1c2ccccc2C[C@H]1O | PBMC | PR-L10I K20R M36I/V P63L/S L90M | - | BR58 (PR L10I K20R M36I/V P63L/S L90M) | 0.005 µM
Cc1cccc(C)c1CNC(=O)[C@H]1N(C(=O)[C@@H](O)C[C@@H](Cc2ccccc2)C(=O)N[C@H]2c3ccccc3C[C@H]2O)CSC1(C)C | MT-4 | PR-V18C | - | - | <0.031 µM
Cc1cc(C)c(-n2nnnc2SCC(=O)Nc2cc(F)ccc2F)c(C)c1 | MT-4 | - | - | - | <10 µM
COC(=O)[C@H](C)NP(=O)(OCC1C/C1=C/n1cnc2c(N)ncnc21)Oc1ccccc1 | PBMC | - | - | ERS104pre | 0.013 µM
COc1ccc(OC[C@@H]2CNCC[C@H]2c2ccccc2)cc1 | MOLT-3 | - | - | IIIB | >4 µg/mL
CC(=O)N1CCC(C(=O)N(CCCN2CCC(Cc3ccc(C(N)=O)cc3)CC2)c2ccc(C)c(Cl)c2)CC1 | PBMC | - | - | JR-FL R5 | 0.00064 µM
O=c1[nH]cnc2c1ncn2[C@H]1CC[C@@H](CO)O1 | MT-2 | RT-I178L | - | NL4-3 | 0.16 µM
Nc1ncnc2c1ncn2[C@H]1CC[C@@H](CO)O1 | CEM | - | - | LAV | 1 µM
O=C1N(Cc2ccc(CO)cc2)[C@H](Cc2ccccc2)[C@H](O)[C@@H](O)[C@@H](Cc2ccccc2)N1Cc1ccc(CO)cc1 | PBMC | - | - | Clinical isolate D1 | 0.07 µM
Nc1ncnc2c1ncn2[C@H]1CC[C@@H](CO)O1 | H9 | - | - | LAV | <10 µM
CC(=O)OC[C@H]1O[C@@H](OC(C)(C)[C@H]2Cc3cc4ccc(=O)oc4cc3O2)[C@H](OC(C)=O)[C@@H](OC(C)=O)[C@@H]1OC(C)=O | H9 | - | - | IIIB | >86.8 µM
COC1=C(N)C(=O)c2nc(-c3nc(C(=O)NNC(N)=O)c(C)c(-c4ccc(OC)c(OC)c4O)c3N)ccc2C1=O | ATH8 | - | - | LAV | >100 µM
Cc1ccc(NC(=S)N[C@H](C)c2cccc3ccccc23)nc1 | PBMC | RT-Y181C | - | NNRTI-resistant (RT Y181C) A17 | 0.066 µM
CC#CCN1C(=O)[C@H]([C@@H](O)C2CCCCC2)NC(=O)C12CCN(Cc1c(C)nn(-c3ccccc3)c1C)CC2 | PBMC | - | - | BAL R5 | 0.032 µM
CC(C)(C)NC(=O)[C@@H]1C[C@@H]2CCCC[C@@H]2CN1C[C@@H](O)[C@H](Cc1ccccc1)NC(=O)[C@H](CC(N)=O)NC(=O)c1ccc2ccccc2n1 | MT-2 | - | - | LAI | 0.021 µM
C[C@@H](NC(=S)Nc1ccc(Cl)cn1)c1cccc2ccccc12 | PBMC | RT-Y181C K103N | - | NNRTI-resistant (RT Y181C K103N) A17V | 0.367 µM
Cc1c(O)cccc1C(=O)N[C@@H](CSc1ccccc1)[C@H](O)CN1C[C@H]2CCCC[C@H]2C[C@H]1C(=O)NC(C)(C)C | PBMC | - | - | BAL R5 | 0.012 µM
CCCCOCCOc1ccc(-c2ccc3c(c2)/C=C(/C(=O)Nc2ccc([S@@](=O)Cc4cncn4CCC)cc2)CCCN3CC(C)C)cc1 | PBMC | - | - | R5-18 R5 clinical isolate | 0.00044 µM
CC(C)(O)c1cccc(CN2C(=O)N(Cc3cccc(C(C)(C)O)c3)[C@H](Cc3ccccc3)[C@H](O)[C@@H](O)[C@H]2Cc2ccccc2)c1 | MT-2/MT-4 + MT-2 | PR-V82F/184V | - | HXB2 | <5.78 µM
Cc1csc(NC(=S)N[C@H](C)c2cccc3ccccc23)n1 | PBMC | RT-Y181C | - | NNRTI-resistant (RT Y181C) A17 | 0.145 µM
Cc1cc(C)c(-n2nnnc2SCC(=O)Nc2cc(C)ccc2Cl)c(C)c1 | MT-4 | - | - | - | <10 µM
Cc1cn([C@H]2C[C@H](N=[N+]=[N-])[C@@H](CO)O2)c(=O)[nH]c1=O | PBMC | RT-V75I F77L Q151M | - | Recombinant | 0.04 µM
Cc1ccnc2c1NC(=O)c1cccnc1N2C1CC1 | PM1 | - | - | Subtype B isolate BR48 | 0.04 µg/mL
Cc1ccc(CCNC(=S)Nc2ccc(Br)cn2)cc1 | PBMC | RT-Y181C | - | A17 | 0.07 µM
Cc1ccc(NC(=S)NC[C@H](C)c2ccccc2)nc1 | PBMC | RT-Y181C K103N | - | NNRTI-resistant (RT Y181C K103N) A17V | 1.84 µM
COC(=O)[C@H](C)NP(=O)(OCC1C/C1=C\n1cnc2c(N)ncnc21)Oc1ccccc1 | MT-2 | - | - | LAI | 0.51 µM
COc1ccc(OC[C@@H]2CN(C)CC[C@H]2c2ccccc2)cc1 | MOLT-3 | - | - | IIIB | ~10 µg/mL
CC(C)=CCN1Cc2cc(Cl)cc3[nH]c(=S)n(c23)C[C@@H]1C | CEM | RT-G190E | - | IIIB | ≥5 µg/mL
Cc1cn([C@H]2C[C@H](N=[N+]=[N-])[C@@H](CO)O2)c(=O)[nH]c1=O | PBMC | - | - | JRFL R6 | 0.007 µM
Cc1cn([C@H]2C[C@H](N=[N+]=[N-])[C@@H](CO)O2)c(=O)[nH]c1=O | PBMC | RT-K20R D67N K70R Y188L T215F K219Q | - | C467-4 Clinical isolate ZDV-resistant | 3.2 µM
CC(C)=CCOc1cc(NC(=S)c2ccsc2C)ccc1Cl | MM + M/M | - | - | BaL | 0.015 µg/mL
Cc1ccc(-c2ccc3c(c2)C=C(C(=O)Nc2ccc(C[N+](C)(C)C4CCOCC4)cc2)CCC3)cc1 | PBMC | - | - | BAL R5 | 0.014 µM
COc1ccc(OC[C@H]2CNCC[C@@H]2c2ccc(F)cc2)cc1 | MOLT-3 | - | - | IIIB | >4 µg/mL
CCO/N=C(\c1ccc(Br)cc1)C1CCN(C2(C)CCN(C(=O)c3c(C)cc[n+]([O-])c3C)CC2)CC1 | PBMC | - | - | JR-FL R5 | 0.002 µM
CC(C)OC(=O)OCOP(=O)(CO[C@H](C)Cn1cnc2c(N)ncnc21)OCOC(=O)OC(C)C | PBMC | - | - | 288C | <0.005 µM
Nc1nc(NC2CC2)c2ncn([C@H]3C=C[C@@H](CO)C3)c2n1 | PBMC | - | - | IIIB | 0.63 µM
Fc1ccc([C@H]2CCNC[C@@H]2COc2ccc3c(c2)OCCO3)cc1 | MOLT-3 | - | - | IIIB | >4 µg/mL
Cc1c(Sc2ccccc2)n(COCCO)c(=O)[nH]c1=O | PB macrophages (day 12) + Macrophage | - | - | BaL | 1 µM
O=C(O)c1cc(O)cc(O)c1N=Nc1ccc(/C=C/c2ccc(N=Nc3c(O)cc(O)cc3C(=O)O)cc2S(=O)(=O)O)c(S(=O)(=O)O)c1 | PBMC | - | - | CLADE B | 1.5 µg/mL
CN(C)CCC=C1c2ccccc2CCc2ccccc21 | MOLT-3 | - | - | IIIB | >10 µg/mL
Cc1cn([C@@H]2O[C@H](CO[Si](C)(C)C(C)(C)C)C3(OS(=O)(=O)C=C3N)[C@H]2O[Si](C)(C)C(C)(C)C)c(=O)n(C)c1=O | MM + M/M | - | - | BaL | 0.08 µg/mL
Cc1ccnc2c1NC(=O)c1cccnc1N2C1CC1 | CEM | RT-Y181C | - | IIIB | 2.5 µg/mL
Cc1cc(C)cc(S(=O)(=O)c2c(C(N)=O)[nH]c3ccc(Cl)cc23)c1 | Macrophage | - | - | IIIB Ba-L | 0.115 µM
CC(=O)O[C@@H]1[C@H](OC(=O)CC(C)C)c2c(ccc3ccc(=O)oc23)OC1(C)C | Macrophage + Monocytes/macrophages | - | - | IIIB | 3.9 µM
Nc1ccn([C@H]2CC[C@@H](CO)O2)c(=O)n1 | JM | - | - | GB8 | 0.002 µM
COc1ccc(OC[C@H]2CN(C)CC[C@@H]2c2ccccc2)cc1 | MOLT-3 | - | - | IIIB | >4 µg/mL
O=C(NCc1ccc(F)cc1)c1nc(Cc2ccccc2)[nH]c(=O)c1O | MT-4 | - | 10% FBS | - | <5.8 µM
CC(C)Nc1cccnc1N1CCN(C(=O)c2cc3cc(NS(C)(=O)=O)ccc3[nH]2)CC1 | MM + M/M | - | - | JR-FL | 0.02 µM
COc1ccc(S(=O)(=O)N(CC2CCCC2)C[C@@H](O)[C@H](Cc2ccccc2)NC(=O)O[C@H]2CCOC2)cc1 | CEM + CEM-SS | - | - | IIIB | 0.007 µM
CC(c1nc(C(=O)NCc2ccc(F)cc2)c(O)c(=O)[nH]1)N(C)C | MT-4 | - | 50% human serum | - | <0.5 µM
NC(=O)C(c1ccccc1)(c1ccccc1)[C@H]1CCCN(CCc2ccc3c(c2)CCO3)C1 | PM1 | - | - | BaL | 11 µM
CSC[C@H](NC(=O)COc1cccc2cnccc12)C(=O)N[C@@H](Cc1ccccc1)[C@H](O)C(=O)N1CSC(C)(C)[C@H]1C(=O)NC(C)(C)C | PBMC(PHA STIM.) + PBMC | - | - | AZT-insensitive | 0.01 µM
Cc1occc1C(=S)Nc1ccc(Cl)c(/C=N/OC(C)(C)C)c1 | CEM | RT-V106A | - | IIIB | 0.13 µg/mL
O=c1[nH]cnc2c1ncn2[C@H]1CC[C@@H](CO)O1 | MT-2 | - | - | LAI | 2 µM
C=C(C)OC(=O)N1c2cc(Cl)ccc2NC(=S)C1(C)C | CEM | RT-M184I | - | IIIB | 0.001 µg/mL
O=C(CSc1nnnn1-c1cccc2ccccc12)Nc1ccc(Cl)cc1Cl | MT-4 | - | - | - | <10 µM
CC(C)[C@H](NC(=O)N(C)Cc1ccccn1)C(=O)N[C@@H](Cc1ccccc1)[C@@H](O)[C@H](O)[C@H](Cc1ccccc1)NC(=O)[C@@H](NC(=O)N(C)Cc1ccccn1)C(C)C | MT-4 | - | - | NL4-3 | 0.9 µM
Nc1nc2c(ncn2[C@H]2CC[C@@H](CO)O2)c(=O)[nH]1 | H9 | - | - | LAV | <10 µM
O=C(CSc1nnnn1-c1cccc2ccccc12)Nc1ccccc1 | MT-4 | - | - | - | <10 µM
Cc1cn([C@H]2C[C@H](N=[N+]=[N-])[C@@H](CO)O2)c(=O)[nH]c1=O | MT-4 | RT-K65R | - | HXB2-D65(RT-K65R) | 0.01 µM
CCOC(=O)[C@H](CS)NC(=O)CC[C@H](N)C(=O)O | H9 | - | - | NL4-3 | <1600 µM
Nc1ccn([C@H]2CC[C@@H](CO)O2)c(=O)n1 | PBMC | - | - | Isolate 2748 | 0.07 µM
CC(C)(O[C@@H]1O[C@H](CO)[C@@H](O)[C@H](O)[C@H]1O)[C@H]1Cc2cc3ccc(=O)oc3cc2O1 | H9 | - | - | IIIB | >122.5 µM
CC(C)[C@H](NC(=O)N(C)Cc1ccccn1)C(=O)N[C@@H](Cc1ccccc1)[C@H](O)[C@H](O)[C@H](Cc1ccccc1)NC(=O)[C@@H](NC(=O)N(C)Cc1ccccn1)C(C)C | MT-4 | - | - | NL4-3 | 0.2 µM
C[C@@H](CNC(=S)Nc1ccccn1)C1CCCCC1 | PBMC | - | - | IIIB | >1 µM
COC(=O)[C@H](C)NP(=O)(OC[C@@H]1C=C[C@H](n2cc(C)c(=O)[nH]c2=O)O1)Oc1ccc(Br)cc1 | PBMC | RT-M41L D67N K70R T215F K219Q | - | G780-1 Clinical isolate ZDV-resistant | 0.035 µM

Blank or dashed fields: not listed here. ECn is the concentration giving n% inhibition of infection, replication or growth.